Results deposited as PubChem BioAssay AID1224833 (University of Georgia, 2016)

- Purpose: 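Human genes whose knock-down alters rotavirus replication in monkey cells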 (primary screen)
- System: monkey MA104 kidney cells
- Knock-down reagent: siRNA pool against human genes, 50 nM
- Timing: 48 h knock-down before infection; read 24 h after infection
- Challenge: infection with rotavirus strain RV3 two days after transfection; infectious dose for this stage not given
- Read-out: 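Rotavirus antigen per well by fluorescent immunoassay, normalised to non-targeting control wells on each plate and given as a standard z-score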
- Scale: z-score vs non-targeting control: higher = more rotavirus replication than with non-targeting control
- Hit rule: In these data the active calls have z-score vs non-targeting control at about -1 or lower, or at about 1 or higher
- Meaning of the calls: active = z-score beyond 1 either way; inactive = z-score within 1 of zero
The whole screen tested about 12,000 reagents; below is a random part of them. Over the whole deposit, about 5,600 (46%) are marked active. 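Active calls cover z-scores past 1 in both directions, so they include lowered as well as raised rotavirus replication.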 A number with no mark means an inactive call.

no.	Gene	PubChem SID	z-score vs non-targeting control
1	GJB2 (GeneID 2706)	SID329573770	1.22 (active)
2	NR2E3 (GeneID 10002)	SID329576912	-1.24 (active)
3	PPIL3 (GeneID 53938)	SID329579238	-1.24 (active)
4	KRT39 (GeneID 390792)	SID329584430	1.18 (active)
5	GALNT16 (GeneID 57452)	SID329580237	-1.44 (active)
6	MIOX (GeneID 55586)	SID329579758	-0.5
7	TNFSF14 (GeneID 8740)	SID329576267	2.05 (active)
8	DMTF1 (GeneID 9988)	SID329576906	-3.3 (active)
9	EPS8L2 (GeneID 64787)	SID329580684	-0.775
10	SGSM1 (GeneID 129049)	SID329582632	0.104
11	IL38 (GeneID 84639)	SID329581677	-0.766
12	UNC50 (GeneID 25972)	SID329578247	0.452
13	TRIP13 (GeneID 9319)	SID329576528	-2.69 (active)
14	EPB41L1 (GeneID 2036)	SID329573545	0.78
15	GAS2L2 (GeneID 246176)	SID329583661	1.6 (active)
16	SLC7A6OS (GeneID 84138)	SID329581527	-0.735
17	SPANXN3 (GeneID 139067)	SID329582770	-1.77 (active)
18	PPAN-P2RY11 (GeneID 692312)	SID329584719	-0.195
19	PCSK2 (GeneID 5126)	SID329574770	1.2 (active)
20	DNAJC13 (GeneID 23317)	SID329577938	-0.282
21	BLOC1S6 (GeneID 26258)	SID329578361	-0.517
22	PLAAT4 (GeneID 5920)	SID329575078	1.09 (active)
23	TMUB1 (GeneID 83590)	SID329581410	0.426
24	RHEX (GeneID 440712)	SID329584583	1.75 (active)
25	TNNC2 (GeneID 7125)	SID329575678	0.414
26	AXIN1 (GeneID 8312)	SID329576055	-0.219
27	NUP37 (GeneID 79023)	SID329580808	-0.696
28	LRRC17 (GeneID 10234)	SID329577043	-0.804
29	GNG3 (GeneID 2785)	SID329573798	0.185
30	ZNF620 (GeneID 253639)	SID329583684	0.355
31	MMP9 (GeneID 4318)	SID329574464	1.45 (active)
32	SMYD5 (GeneID 10322)	SID329577100	1.55 (active)
33	ZNF263 (GeneID 10127)	SID329576977	-0.808
34	ZMYND19 (GeneID 116225)	SID329582302	1.07 (active)
35	CTNND1 (GeneID 1500)	SID329573313	-0.681
36	COPS3 (GeneID 8533)	SID329576160	-1.03 (active)
37	PATE1 (GeneID 160065)	SID329583179	-2.24 (active)
38	GPATCH4 (GeneID 54865)	SID329579434	0.74
39	ZNF564 (GeneID 163050)	SID329583229	-0.0667
40	FOXD3 (GeneID 27022)	SID329578465	-1.74 (active)
41	NPAS2 (GeneID 4862)	SID329574656	0.94
42	TACC3 (GeneID 10460)	SID329577171	0.0624
43	KLF4 (GeneID 9314)	SID329576525	-0.869
44	RPGRIP1 (GeneID 57096)	SID329580156	-2.17 (active)
45	PRC1 (GeneID 9055)	SID329576396	-0.894
46	TMEM38A (GeneID 79041)	SID329580817	0.379
47	ITPRIPL1 (GeneID 150771)	SID329583028	0.517
48	COL4A1 (GeneID 1282)	SID329573198	-0.103
49	ASCL4 (GeneID 121549)	SID329582428	2.58 (active)
50	ZNF600 (GeneID 162966)	SID329583223	-0.892
51	MYH13 (GeneID 8735)	SID329576263	-1.16 (active)
52	TFPI (GeneID 7035)	SID329575619	-0.695
53	MSANTD1 (GeneID 345222)	SID329584140	-2.48 (active)
54	ZKSCAN1 (GeneID 7586)	SID329575870	0.763
55	PCDHA7 (GeneID 56141)	SID329579990	-0.0643
56	NEMF (GeneID 9147)	SID329576453	2.15 (active)
57	SYAP1 (GeneID 94056)	SID329582135	0.511
58	KRTAP11-1 (GeneID 337880)	SID329584008	-1.13 (active)
59	CYB561 (GeneID 1534)	SID329573326	-0.0986
60	GPBP1L1 (GeneID 60313)	SID329580462	-0.696
61	TUBAL3 (GeneID 79861)	SID329581045	-1.02 (active)
62	ATP8B1 (GeneID 5205)	SID329574810	-2.5 (active)
63	SEPHS1 (GeneID 22929)	SID329577733	-0.579
64	TSNAX (GeneID 7257)	SID329575724	-2.44 (active)
65	SRI (GeneID 6717)	SID329575480	-0.521
66	DAO (GeneID 1610)	SID329573360	1.41 (active)
67	TNFRSF1A (GeneID 7132)	SID329575681	1.45 (active)
68	CAPS2 (GeneID 84698)	SID329581708	-0.655
69	CSRP1 (GeneID 1465)	SID329573289	-1.31 (active)
70	STRN3 (GeneID 29966)	SID329578742	0.254
71	SLC6A12 (GeneID 6539)	SID329575359	-1.74 (active)
72	DNAJB13 (GeneID 374407)	SID329584225	3.55 (active)
73	ATOH1 (GeneID 474)	SID329572848	-1.06 (active)
74	STX5 (GeneID 6811)	SID329575519	-0.959
75	RAD51AP1 (GeneID 10635)	SID329577288	3.16 (active)
76	ARHGEF12 (GeneID 23365)	SID329577959	1.92 (active)
77	CDH8 (GeneID 1006)	SID329573109	-1.49 (active)
78	CCL3L1 (GeneID 6349)	SID329575254	-0.0497
79	CYB5R4 (GeneID 51167)	SID329578948	-1.67 (active)
80	SHISA3 (GeneID 152573)	SID329583071	-0.82
81	GCM2 (GeneID 9247)	SID329576501	-0.736
82	ZDHHC13 (GeneID 54503)	SID329579297	-0.914

Part of the list above, set out differently.
{"Gene": "PPAN-P2RY11 (GeneID 692312)", "PubChem SID": "SID329584719", "z-score vs non-targeting control": -0.195}
{"Gene": "PCSK2 (GeneID 5126)", "PubChem SID": "SID329574770", "z-score vs non-targeting control": "1.2 (active)"}
{"Gene": "DNAJC13 (GeneID 23317)", "PubChem SID": "SID329577938", "z-score vs non-targeting control": -0.282}
{"Gene": "BLOC1S6 (GeneID 26258)", "PubChem SID": "SID329578361", "z-score vs non-targeting control": -0.517}
{"Gene": "PLAAT4 (GeneID 5920)", "PubChem SID": "SID329575078", "z-score vs non-targeting control": "1.09 (active)"}
{"Gene": "TMUB1 (GeneID 83590)", "PubChem SID": "SID329581410", "z-score vs non-targeting control": 0.426}
{"Gene": "RHEX (GeneID 440712)", "PubChem SID": "SID329584583", "z-score vs non-targeting control": "1.75 (active)"}
{"Gene": "TNNC2 (GeneID 7125)", "PubChem SID": "SID329575678", "z-score vs non-targeting control": 0.414}
{"Gene": "AXIN1 (GeneID 8312)", "PubChem SID": "SID329576055", "z-score vs non-targeting control": -0.219}
{"Gene": "NUP37 (GeneID 79023)", "PubChem SID": "SID329580808", "z-score vs non-targeting control": -0.696}
{"Gene": "LRRC17 (GeneID 10234)", "PubChem SID": "SID329577043", "z-score vs non-targeting control": -0.804}
{"Gene": "GNG3 (GeneID 2785)", "PubChem SID": "SID329573798", "z-score vs non-targeting control": 0.185}
{"Gene": "ZNF620 (GeneID 253639)", "PubChem SID": "SID329583684", "z-score vs non-targeting control": 0.355}
{"Gene": "MMP9 (GeneID 4318)", "PubChem SID": "SID329574464", "z-score vs non-targeting control": "1.45 (active)"}
{"Gene": "SMYD5 (GeneID 10322)", "PubChem SID": "SID329577100", "z-score vs non-targeting control": "1.55 (active)"}
{"Gene": "ZNF263 (GeneID 10127)", "PubChem SID": "SID329576977", "z-score vs non-targeting control": -0.808}
{"Gene": "ZMYND19 (GeneID 116225)", "PubChem SID": "SID329582302", "z-score vs non-targeting control": "1.07 (active)"}
{"Gene": "CTNND1 (GeneID 1500)", "PubChem SID": "SID329573313", "z-score vs non-targeting control": -0.681}
{"Gene": "COPS3 (GeneID 8533)", "PubChem SID": "SID329576160", "z-score vs non-targeting control": "-1.03 (active)"}
{"Gene": "PATE1 (GeneID 160065)", "PubChem SID": "SID329583179", "z-score vs non-targeting control": "-2.24 (active)"}
{"Gene": "GPATCH4 (GeneID 54865)", "PubChem SID": "SID329579434", "z-score vs non-targeting control": 0.74}
{"Gene": "ZNF564 (GeneID 163050)", "PubChem SID": "SID329583229", "z-score vs non-targeting control": -0.0667}

Additional reagents follow:
no.	Gene	PubChem SID	z-score vs non-targeting control
83	TPRG1 (GeneID 285386)	SID329583932	2.1 (active)
84	PAXBP1 (GeneID 94104)	SID329582140	-0.912
85	TGM4 (GeneID 7047)	SID329575629	-1.1 (active)
86	AMOTL1 (GeneID 154810)	SID329583113	-0.234
87	ALB (GeneID 213)	SID329572738	-2.34 (active)
88	IER3 (GeneID 8870)	SID329576327	1.27 (active)
89	SPACA4 (GeneID 171169)	SID329583336	-1.34 (active)
90	TSPYL4 (GeneID 23270)	SID329577908	-1.34 (active)
91	THAP1 (GeneID 55145)	SID329579593	-0.671
92	MORN4 (GeneID 118812)	SID329582373	0.324
93	SRSF9 (GeneID 8683)	SID329576236	-0.609
94	CYP4F3 (GeneID 4051)	SID329574338	0.663
95	SLC36A2 (GeneID 153201)	SID329583080	-1.51 (active)
96	CLGN (GeneID 1047)	SID329573129	-0.801
97	SCAF4 (GeneID 57466)	SID329580245	-2.5 (active)
98	LAMTOR2 (GeneID 28956)	SID329578605	0.603
99	ATOSA (GeneID 56204)	SID329580009	1.07 (active)
100	CCL22 (GeneID 6367)	SID329575267	0.42
101	MRPS5 (GeneID 64969)	SID329580729	1.13 (active)
102	PATJ (GeneID 10207)	SID329577025	0.174
103	RRN3 (GeneID 54700)	SID329579362	-0.609
104	WTAP (GeneID 9589)	SID329576678	-0.81
105	DGKE (GeneID 8526)	SID329576155	-1.79 (active)
106	BORCS7 (GeneID 119032)	SID329582381	-0.467
107	PNOC (GeneID 5368)	SID329574877	-0.0954
108	HBZ (GeneID 3050)	SID329573938	1.88 (active)
109	DLEC1 (GeneID 9940)	SID329576885	0.898
110	OASL (GeneID 8638)	SID329576208	-1.55 (active)
111	CXXC4 (GeneID 80319)	SID329581210	-1.41 (active)
112	SOX4 (GeneID 6659)	SID329575440	0.643
113	CREB5 (GeneID 9586)	SID329576675	-1.28 (active)
114	ZNF19 (GeneID 7567)	SID329575860	-0.917
115	REEP5 (GeneID 7905)	SID329575966	-2.35 (active)
116	CPEB2 (GeneID 132864)	SID329582695	-0.96
117	HMCN1 (GeneID 83872)	SID329581463	-0.6
118	TAT (GeneID 6898)	SID329575564	-0.949
119	CD1C (GeneID 911)	SID329573047	-0.845
120	MRPL20 (GeneID 55052)	SID329579540	-0.207
121	HAVCR1 (GeneID 26762)	SID329578444	-2.37 (active)
122	BCL3 (GeneID 602)	SID329572905	3.3 (active)
123	PTF1A (GeneID 256297)	SID329583739	-0.862
124	MROH7 (GeneID 374977)	SID329584244	0.958
125	SLC11A2 (GeneID 4891)	SID329574669	0.812
126	TBL2 (GeneID 26608)	SID329578424	-1.3 (active)
127	COL6A3 (GeneID 1293)	SID329573208	-0.654
128	AMPD1 (GeneID 270)	SID329572756	-2.63 (active)
129	SLC45A2 (GeneID 51151)	SID329578938	0.495
130	ZNF454 (GeneID 285676)	SID329583950	-0.244
131	IFIT5 (GeneID 24138)	SID329578141	-0.0028
132	LRRN3 (GeneID 54674)	SID329579356	-0.14
133	EIF4E3 (GeneID 317649)	SID329583989	-2.5 (active)
134	TTC33 (GeneID 23548)	SID329578053	0.617
135	MRPS28 (GeneID 28957)	SID329578606	-0.572
136	EPHX1 (GeneID 2052)	SID329573549	0.878
137	TPM3 (GeneID 7170)	SID329575704	-2.04 (active)
138	LRRC8A (GeneID 56262)	SID329580022	1.31 (active)
139	PALB2 (GeneID 79728)	SID329580979	-0.607
140	ACAT2 (GeneID 39)	SID329572667	-1.43 (active)
